From PMC4914392 (Bioorganic & medicinal chemistry, 2016)

Experiment: Fluorescence properties in MeOH and H2O
Details: excitation at 305 nm

Compound | Fluorescence emission λmax (H2O) [nm] | Fluorescence emission λmax (MeOH) [nm]
CCN(CC)CC.Nc1nc(-c2ccc3ccccc3c2)cc2c1nnn2[C@@H]1O[C@H](COS(=O)(=O)NC(=O)c2ccccc2O)[C@@H](O)[C@H]1O [Compound 6e, 4-Amino-1-{5-O-[N-(2-hydroxybenzoyl)sulfamoyl]-β-D-ribofuranosyl}-6-(napht-2-yl)-1H-[1,2,3]triazole[4,5-c]pyridine triethylammonium salt] | 420 | 412
CCN(CC)CC.Nc1nc(-c2ccc(F)cc2)cc2c1nnn2[C@@H]1O[C@H](COS(=O)(=O)NC(=O)c2ccccc2O)[C@@H](O)[C@H]1O [Compound 6c, 4-Amino-6-(4-fluorophenyl)-1-{5-O-[N-(2-hydroxybenzoyl)sulfamoyl]-β-D-ribofuranosyl}-1H-[1,2,3]triazole[4,5-c]pyridine triethylammonium salt] | 442 | 420
CCN(CC)CC.Nc1nc(-c2ccccc2)cc2c1nnn2[C@@H]1O[C@H](COS(=O)(=O)NC(=O)c2ccccc2O)[C@@H](O)[C@H]1O [Compound 6a, 4-Amino-1-{5-O-[N-(2-hydroxybenzoyl)sulfamoyl]-β-D-ribofuranosyl}-6-phenyl-1H-[1,2,3]triazole[4,5-c]pyridine triethylammonium salt] | 433 | 419
CCN(CC)CC.Nc1nc(-c2ccc(C(F)(F)F)cc2)cc2c1nnn2[C@@H]1O[C@H](COS(=O)(=O)NC(=O)c2ccccc2O)[C@@H](O)[C@H]1O [Compound 6d, 4-Amino-1-{5-O-[N-(2-hydroxybenzoyl)sulfamoyl]-β-D-ribofuranosyl}-6-(4-trifluoromethylphenyl)-1H-[1,2,3]triazole[4,5-c]pyridine triethylammonium salt] | 422 | 409
CCN(CC)CC.COc1ccc2cc(-c3cc4c(nnn4[C@@H]4O[C@H](COS(=O)(=O)NC(=O)c5ccccc5O)[C@@H](O)[C@H]4O)c(N)n3)ccc2c1 [Compound 6f, 4-Amino-1-{5-O-[N-(2-hydroxybenzoyl)sulfamoyl]-β-D-ribofuranosyl}-6-(6-methoxynapht-2-yl)-1H-[1,2,3]triazole[4,5-c]pyridine triethylammonium salt] | 425 | 418
CCN(CC)CC.Cc1ccc(-c2cc3c(nnn3[C@@H]3O[C@H](COS(=O)(=O)NC(=O)c4ccccc4O)[C@@H](O)[C@H]3O)c(N)n2)cc1 [Compound 6b, 4-Amino-1-{5-O-[N-(2-hydroxybenzoyl)sulfamoyl]-β-D-ribofuranosyl}-6-(4-methylphenyl)-1H-[1,2,3]triazole[4,5-c]pyridine triethylammonium salt] | 433 | 412
